Pooled drug test results. Numbers come from NIAID ChemDB, via PubChem.

Shared fields: whole-cell or culture tests; organism: Mycobacterium avium; measure: MIC90

A number after MIC or MFC names an inhibition level or a share of isolates. Lines come from different laboratories, so protocols vary.

| structure | strain or isolate | value |
|---|---|---|
| NNC(=O)c1ccncc1 | Reference strains | >16 µg/mL |
| CC(C)(C)n1cc(C(=O)O)c(=O)c2cc(F)c(N3CCNCC3)nc21 | 14 strains | 4 µg/mL |
| CO[C@H]1/C=C/O[C@@]2(C)Oc3c(C)c(O)c4c(O)c(c5c(c4c3C2=O)NC2(CCN(CC(C)C)CC2)N=5)=NC(=O)/C(C)=C\C=C\[C@H](C)[C@H](O)[C@@H](C)[C@@H](O)[C@@H](C)[C@H](OC(C)=O)[C@@H]1C | Clinical isolate | >0.5 µg/mL |
| CCn1cc(C(=O)O)c(=O)c2cc(F)c(N3CCNCC3)cc21 | 14 strains | 32 µg/mL |
| CC(C)N=c1cc2n(-c3ccc(Cl)cc3)c3ccccc3nc-2cc1Nc1ccc(Cl)cc1 | Clinical isolate | 0.12 µg/mL |
| CO[C@H]1/C=C/O[C@@]2(C)Oc3c(C)c(O)c4c(O)c(c(/C=N/N5CCN(C)CC5)c(O)c4c3C2=O)NC(=O)/C(C)=C\C=C\[C@H](C)[C@H](O)[C@@H](C)[C@@H](O)[C@@H](C)[C@H](OC(C)=O)[C@@H]1C | Clinical strains | >16 µg/mL |
| CO[C@H]1/C=C/O[C@@]2(C)Oc3c(C)c(O)c4c(O)c(c5c(c4c3C2=O)NC2(CCN(CC(C)C)CC2)N=5)=NC(=O)/C(C)=C\C=C\[C@H](C)[C@H](O)[C@@H](C)[C@@H](O)[C@@H](C)[C@H](OC(C)=O)[C@@H]1C | 9 isolates (HIV+) | 2 µg/mL |
| Cc1c(F)c(N2CCNC(C)C2)c(C(F)(F)F)c2c1c(=O)c(C(=O)O)cn2C1CC1 | 14 strains | 16 µg/mL |
| CCn1cc(C(=O)O)c(=O)c2cc(F)c(-n3cccc3)cc21 | 22 strains | 64 µg/mL |
| CCN(CC)c1nc2c(s1)c1c(O)c3c(O)c(C)c4c(c32)C(=O)[C@@](C)(O/C=C/[C@H](OC)[C@@H](C)[C@@H](OC(C)=O)[C@H](C)[C@H](O)[C@H](C)[C@@H](O)[C@@H](C)/C=C/C=C(/C)C(=O)N1)O4 | 50 strains | 0.94 µg/mL |
| Cc1cc(-c2cc3c(cc2F)c(=O)c(C(=O)O)cn3C2CC2)cc(C)n1 | 55 strains | 3 µg/mL |
| CC[C@@H](CO)NCCN[C@@H](CC)CO | 9 isolates (HIV+) | >16 µg/mL |
| CCn1cc(C(=O)O)c(=O)c2cc(F)c(N3CCNCC3)cc21 | 13 strains | >64 µg/mL |
| CCNCC1CCN(c2c(F)cc3c(=O)c(C(=O)O)cn(CC)c3c2F)C1 | 22 strains | >64 µg/mL |
| CCNCC1CCN(c2c(F)cc3c(=O)c(C(=O)O)cn4c3c2CCC4C)C1 | 14 strains | >32 µg/mL |
| CC[C@H]1OC(=O)[C@H](C)[C@@H](O[C@H]2C[C@@](C)(OC)[C@@H](O)[C@H](C)O2)[C@H](C)[C@@H](O[C@@H]2O[C@H](C)C[C@H](N(C)C)[C@H]2O)[C@](C)(O)C[C@@H](C)C(=O)[C@H](C)[C@@H](O)[C@]1(C)O | Reference strains | >16 µg/mL |
| O=C(O)c1cn(-c2ccc(F)cc2)c2cc(N3CCNCC3)c(F)cc2c1=O | 22 strains | 128 µg/mL |
| NCC[C@H](O)C(=O)N[C@@H]1C[C@H](N)[C@@H](O[C@H]2O[C@H](CN)[C@@H](O)[C@H](O)[C@H]2O)[C@H](O)[C@H]1O[C@H]1O[C@H](CO)[C@@H](O)[C@H](N)[C@H]1O | Clinical isolate | >16 µg/mL |
| NC1CCCCN(c2c(F)cc3c(=O)c(C(=O)O)cn(C4CC4)c3c2F)C1=O | 14 strains | >32 µg/mL |
| NCCC(O)C(=O)N[C@@H]1C[C@H](N)C(O[C@H]2O[C@H](CN)[C@@H](O)[C@H](O)[C@H]2O)[C@H](O)[C@H]1O[C@H]1O[C@H](CO)[C@@H](O)[C@H](N)[C@H]1O | Reference strains | 8 µg/mL |
| CC(=O)O[C@H]1C[C@@]2(C)[C@@H](C[C@@H](O)[C@H]3[C@@]4(C)CC[C@@H](O)[C@@H](C)[C@@H]4CC[C@@]32C)/C1=C(\CCC=C(C)C)C(=O)O | 22 strains | 64 µg/mL |

3 of the rows above, restated:

{"structure": "Cc1c(F)c(N2CCNC(C)C2)c(C(F)(F)F)c2c1c(=O)c(C(=O)O)cn2C1CC1", "strain or isolate": "14 strains", "value": "16 µg/mL"}
{"structure": "Cc1cc(-c2cc3c(cc2F)c(=O)c(C(=O)O)cn3C2CC2)cc(C)n1", "strain or isolate": "55 strains", "value": "3 µg/mL"}
{"structure": "CC(C)(C)n1cc(C(=O)O)c(=O)c2cc(F)c(N3CCNCC3)nc21", "strain or isolate": "14 strains", "value": "4 µg/mL"}